Compound potency records, mixed from different reports. Data source: NIAID ChemDB in PubChem.

Common to all: tests on isolated targets; organism: HIV; target: Protease; endpoint: IC50

ICn: concentration for n% inhibition. An empty or dashed field is not shown. Rows are shuffled and stem from different studies. a–b is a range or a potency band.

SMILES,changes,method,result
COc1ccc(S(=O)(=O)N(CCc2cccc(N)c2)C[C@H](O)CN2C[C@H]3CCCC[C@H]3C[C@H]2C(=O)NC(C)(C)C)cc1,,,>200 µM
O=S(=O)(O)c1cc(S(=O)(=O)O)c2cc(NS(=O)(=O)c3ccc(-c4ccc(S(=O)(=O)Nc5ccc6cc(S(=O)(=O)O)cc(S(=O)(=O)O)c6c5)cc4)cc3)ccc2c1,,fluorescence,14 µM
COc1ccc(S(=O)(=O)N(CC2CCCCC2)C[C@H](O)CN2C[C@H]3CCCC[C@H]3C[C@H]2C(=O)NC(C)(C)C)cc1,,,3.74 µM
CCCC[C@@H](CN[C@@H](CCC(N)=O)C(=O)N[C@@H](CCCN=C(N)N)C(N)=O)NC(=O)[C@H](CCCC)NC(=O)C(NC(=O)C(NC(C)=O)[C@@H](C)O)[C@@H](C)CC,PR-N88D,HPLC,>2.17 µM
C=CC(C)(C)c1[nH]c2ccccc2c1C1=C(O)C(=O)C(c2c(C(C)(C)C=C)[nH]c3ccccc23)=C(O)C1=O,PR-V82T,,1.8 µM
CC(C)(C)NC(=O)[C@@H]1CCCN1C(=O)[C@@H](O)[C@H](Cc1ccccc1)NC(=O)[C@H](CC(N)=O)NC(=O)COc1ccc([N+](=O)[O-])cc1,,HPLC,0.028 µg/mL
CC[C@H](C)[C@H](NC(=O)[C@@H]1CCCN1C(=O)[C@H](Cc1ccc(O)cc1)NC(=O)[C@@H](NC(=O)[C@H](CCC(N)=O)NC(=O)[C@@H](N)CO)C1CCCO1)C(=O)N[C@H](C(=O)O)C(C)C,,,<0.05 µM
O=C(C[C@@H](CC1CCCCC1)[C@@H](O)C[C@@H](Cc1ccc(O)cc1)C(=O)N[C@H]1c2ccccc2C[C@H]1O)NC1CCCC1,,HPLC,0.001–0.1 µM
CC(C)(C)NC(=O)c1ccccc1C[C@@H](O)[C@@H](Cc1ccccc1)NC(=O)c1cccc2c1CCNC2,,fluorescence,0.113 µg/mL
O=C(CCCCCCCCCCC(=O)Nc1ccc(S(=O)(=O)O)c2cccc(S(=O)(=O)O)c12)Nc1ccc(S(=O)(=O)O)c2cccc(S(=O)(=O)O)c12,,fluorescence,18 µM
CC(C)CN(C[C@@H](O)COC(=O)Nc1ccc2[nH]ccc2c1)S(=O)(=O)c1ccc([N+](=O)[O-])cc1,,,2.4 µM
CC(C)CN(C[C@H](O)CN1C[C@H]2CCCC[C@H]2C[C@H]1C(=O)NC(C)(C)C)S(=O)(=O)c1ccc(N)cc1,,,0.02 µM
CC(C)(C)NC(=O)[C@@H]1CCCN1C(=O)[C@@H](O)[C@H](Cc1ccccc1)NC(=O)[C@H](CC(N)=O)NC(=O)COc1ccccc1,,HPLC,0.022 µg/mL
O=C(CCCCCCCCC(=O)Nc1ccc(S(=O)(=O)O)c2cccc(S(=O)(=O)O)c12)Nc1ccc(S(=O)(=O)O)c2cccc(S(=O)(=O)O)c12,,fluorescence,30 µM
COc1ccc(S(=O)(=O)N(CCc2ccccc2)C[C@H](O)CN2C[C@H]3CCCC[C@H]3C[C@H]2C(=O)NC(C)(C)C)cc1,,,4.88 µM
Cc1cc(C)c(S(=O)(=O)Oc2ccc3cccc(S(=O)(=O)O)c3c2)c(C)c1S(=O)(=O)Oc1ccc2cccc(S(=O)(=O)O)c2c1,,fluorescence,45 µM
CC(C)(C)NC(=O)[C@@H]1CCCN1C(=O)[C@@H](O)[C@H](Cc1ccccc1)NC(=O)[C@H](CC(N)=O)NC(=O)COc1cccc([N+](=O)[O-])c1,,HPLC,0.032 µg/mL
O=C(CCCCCC(=O)Nc1ccc(S(=O)(=O)O)c2cccc(S(=O)(=O)O)c12)Nc1ccc(S(=O)(=O)O)c2cccc(S(=O)(=O)O)c12,,fluorescence,110 µM
O=C(CC1CCOC1)C[C@@H](CC1CCCCC1)[C@@H](O)C[C@@H](Cc1ccccc1)C(=O)N[C@H]1c2ccccc2C[C@H]1O,,HPLC,0.0115–0.058 µM
COC(=O)C(=O)N1CCC[C@H]1C(=O)N[C@@H](Cc1ccccc1)C(=O)Nc1cccc(OCC(=O)N[C@@H](CC(N)=O)C(=O)N[C@@H](Cc2ccccc2)[C@H](O)C(=O)N2CCC[C@H]2C(=O)NC(C)(C)C)c1,,HPLC,0.027 µg/mL
COc1ccc(S(=O)(=O)N(CCc2cccc([N+](=O)[O-])c2)C[C@H](O)CN2C[C@H]3CCCC[C@H]3C[C@H]2C(=O)NC(C)(C)C)cc1,,,19.73 µM
CC(C)(C)OC(=O)C[C@@H](CC1CCCCC1)[C@@H](O)C[C@@H](Cc1ccc(O)cc1)C(=O)N[C@H]1c2ccccc2C[C@H]1O,,HPLC,0.001–0.1 µM

Repeating the final 2 entries:

{"SMILES": "COc1ccc(S(=O)(=O)N(CCc2cccc([N+](=O)[O-])c2)C[C@H](O)CN2C[C@H]3CCCC[C@H]3C[C@H]2C(=O)NC(C)(C)C)cc1", "result": "19.73 µM"}
{"SMILES": "CC(C)(C)OC(=O)C[C@@H](CC1CCCCC1)[C@@H](O)C[C@@H](Cc1ccc(O)cc1)C(=O)N[C@H]1c2ccccc2C[C@H]1O", "method": "HPLC", "result": "0.001–0.1 µM"}